Results of unrelated studies side by side (data: NIAID ChemDB).

Shared fields: growth or infection tests; organism: Hepatitis B virus; endpoint: EC50

Conditions beyond the fields shown may differ between rows. a–b is a range or a potency band. An empty or dashed field is not shown. ECn: concentration that inhibits the pathogen or its effect by n%.

{"structure": "COc1cc(O)c2c(=O)c(O)c(-c3ccc(O)cc3)oc2c1", "cell line": "HepG2.2.15", "read by": "ELISA / antigen", "result": "<32.67 µM"}
{"structure": "Nc1nc2c(ncn2C[C@@H](CO)OCP(=O)(O)O)c(=O)[nH]1", "cell line": "HB611", "result": "32 µM"}
{"structure": "O=C(O)c1ccccc1O", "cell line": "HepG2.2.15", "read by": "ELISA / antigen", "result": "3620 µM"}
{"structure": "CC1=C(O)C(=O)C=C2C1=CC=C1[C@@]2(C)CC[C@@]2(C)[C@@H]3C[C@](C)(C(=O)OCc4ccccc4)CC[C@]3(C)CC[C@]12C", "cell line": "HepG2 2.2.15", "read by": "ELISA / antigen", "result": "17.3 µM"}
{"structure": "Nc1ncnc2c1ncn2[C@@H]1C[C@@H](F)[C@H](CO)O1", "cell line": "HepG2.2.15", "result": ">10 µM"}
{"structure": "Nc1nc(N)c(Br)c(OCCOCP(=O)(O)O)n1", "cell line": "HEPAD79", "result": "6 µg/mL"}
{"structure": "C[C@H](Cn1cnc2c(N)ncnc21)OCP(=O)(O)O", "cell line": "HEPAD79", "read by": "PCR", "result": "0.3 µM"}
{"structure": "Nc1ccn([C@H]2CC[C@@H](CO)O2)c(=O)n1", "cell line": "HB611", "result": "1.6–2.8 µM"}
{"structure": "Cc1cn(C2C=CC(C(=O)O)O2)c(=O)[nH]c1=O", "cell line": "HepG2", "read by": "replicon", "result": "10 µg/mL"}
{"structure": "Nc1nc(=O)n([C@@H]2CS[C@H](CO)O2)cc1F", "cell line": "HepG2.2.15", "result": "0.04 µM"}
{"structure": "Nc1ncnc2c1ncn2[C@@H]1C[C@@H](N)[C@H](CO)O1", "cell line": "2.2.15", "result": ">10 µM"}
{"structure": "C[C@@H](COc1cc(N)nc(N)n1)OCP(=O)(O)O", "cell line": "HepAD38", "result": "17 µg/mL"}
{"structure": "Nc1ncnc2c1ncn2CC(COCP(=O)(O)O)OCP(=O)(O)O", "cell line": "HB611", "result": "100 µM"}
{"structure": "COc1ccc(CN=C2NC3=C(CCN(C(=O)c4ccc(Br)c(Cl)c4)C3)S(=O)(=O)N2c2ccccc2)cc1", "strain": "Genotype D", "cell line": "HepG2.117", "read by": "PCR", "result": ">1 µM"}
{"structure": "N#CCc1c(N)nc(N)nc1OCCOCP(=O)(O)O", "cell line": "HEPAD79", "read by": "PCR", "result": ">300 µM"}
{"structure": "Nc1ncnc2c1ncn2[C@@H]1C[C@@H](F)[C@H](CO)O1", "cell line": "2.2.15", "result": ">10 µM"}
{"structure": "COc1ccc([C@H]2OC[C@H]3[C@@H]2CO[C@@H]3c2cc(OC)c(O)c(OC)c2)cc1O", "cell line": "HepG2.2.15", "read by": "PCR", "result": "9.38 µM"}
{"structure": "Cc1cn([C@@H]2C[C@@H](F)[C@H](CO)O2)c(=O)[nH]c1=O", "cell line": "HepG2.2.15", "result": ">10 µM"}
{"structure": "COc1cc2ccc(=O)oc2cc1O", "cell line": "HepG2.2.15", "read by": "ELISA / antigen", "result": "2910 µM"}
{"structure": "N#Cc1c(N)nc(N)nc1OCCOCP(=O)(O)O", "cell line": "HepAD38", "read by": "PCR", "result": "0.14 µM"}
{"structure": "COc1cc2c(c(C)c1OC)CC=C1[C@@]2(C)CC[C@@]2(C)[C@@H]3C[C@](C)(CO)CC[C@]3(C)CC[C@]12C", "cell line": "HepG2 2.2.15", "read by": "ELISA / antigen", "result": "72.5 µM"}
{"structure": "Nc1ncnc2c1ncn2CCOCP(=O)(O)O", "cell line": "HepG2", "read by": "ELISA", "result": "4.23 µM"}
{"structure": "Nc1nc(OCCOCP(=O)(O)O)cc(=O)[nH]1", "cell line": "HepAD38", "read by": "PCR", "result": "1.3 µM"}
{"structure": "CC(C)N=C1NC2=C(CCN(C(=O)c3ccc(Br)c(Cl)c3)C2)S(=O)(=O)N1Cc1ccccc1", "strain": "Genotype D", "cell line": "HepG2.117 cells", "read by": "PCR", "result": ">1 µM"}
{"structure": "Cc1c(N)nc(N)nc1OCCOCP(=O)(O)O", "cell line": "HEPAD79", "result": "0.6 µg/mL"}
{"structure": "Nc1ccn([C@@H]2CS[C@H](CO)O2)c(=O)n1", "strain": "M550V", "result": "8.5 µM"}
{"structure": "Nc1ncnc2c1ncn2CC(CF)OCP(=O)(O)O", "cell line": "HB611", "result": "12 µM"}
{"structure": "Nc1ccn([C@@H]2C=C[C@H](CO)O2)c(=O)n1", "cell line": "2.2.15", "result": "<0.1 µM"}
{"structure": "CCCNC(=O)[C@]1(C)CC[C@]2(C)CC[C@]3(C)C4=CC=C5C(=CC(=O)C(O)=C5C)[C@]4(C)CC[C@@]3(C)[C@@H]2C1", "cell line": "HepG2 2.2.15", "read by": "ELISA / antigen", "result": "21.4 µM"}
{"structure": "Nc1cc(OCCOCP(=O)(O)O)ncn1", "cell line": "HepAD38", "read by": "PCR", "result": "120 µM"}
{"structure": "CNC(=O)[C@]1(C)CC[C@]2(C)CC[C@]3(C)C4=CC=C5C(=CC(=O)C(O)=C5C)[C@]4(C)CC[C@@]3(C)[C@@H]2C1", "cell line": "HepG2 2.2.15", "read by": "ELISA / antigen", "result": "20.3 µM"}
{"structure": "Nc1nc(N)c(C=O)c(OCCOCP(=O)(O)O)n1", "cell line": "HEPAD79", "result": "2.6 µg/mL"}
{"structure": "Nc1nc(N)c(C=O)c(OCCOCP(=O)(O)O)n1", "cell line": "HEPAD79", "read by": "PCR", "result": "9 µM"}
{"structure": "C[C@@]1(C(=O)O)CC[C@]2(C)CC[C@]3(C)C4=CC(c5c[nH]c6ccccc56)c5cc(O)c(O)cc5[C@]4(C)CC[C@@]3(C)[C@@H]2C1", "cell line": "HepG2 2.2.15", "read by": "ELISA / antigen", "result": ">100 µM"}
{"structure": "Nc1ccn([C@@H]2CS[C@H](CO)O2)c(=O)n1", "strain": "Mutation M550I", "cell line": "HepG2", "result": "3.8 µM"}
{"structure": "COc1ccc(Sc2nc(N)nc3c2ncn3CCOCP(=O)(OCC(F)(F)F)OCC(F)(F)F)cc1", "strain": "Mutations L528M M552V", "cell line": "Huh7", "result": "2 µM"}
{"structure": "Cc1cn([C@@H]2C[C@@H](O)[C@H](CO)O2)c(=O)[nH]c1=O", "cell line": "2.2.15", "result": "0.19 µM"}
{"structure": "Nc1nc(N)c2ncn([C@H]3CO[C@@H](CO)O3)c2n1", "strain": "M550V", "result": "36 µM"}
{"structure": "COc1ccc(N2C(=NC(C)C)NC3=C(CCN(C(=O)c4ccc(Br)c(Cl)c4)C3)S2(=O)=O)cc1", "strain": "Genotype D", "cell line": "HepG2.117 cells", "read by": "PCR", "result": "0.1–1 µM"}
{"structure": "CC(c1ccc(O)c(O)c1)N1C=NC2C(N)=NC=NC21", "cell line": "HepG2.2.15", "read by": "PCR", "result": "13.06 µM"}
{"structure": "C[C@@H](COc1cc(N)nc(N)n1)OCP(=O)(O)O", "cell line": "HEPAD79", "read by": "PCR", "result": ">300 µM"}

A second listing of 4 rows from above:

structure	strain	cell line	read by	result
COc1cc(O)c2c(=O)c(O)c(-c3ccc(O)cc3)oc2c1		HepG2.2.15	ELISA / antigen	<32.67 µM
Nc1ccn([C@H]2CC[C@@H](CO)O2)c(=O)n1		HB611		1.6–2.8 µM
Cc1cn([C@@H]2C[C@@H](O)[C@H](CO)O2)c(=O)[nH]c1=O		2.2.15		0.19 µM
N#CCc1c(N)nc(N)nc1OCCOCP(=O)(O)O		HEPAD79	PCR	>300 µM